The text below walks through data of publication PMC11332347.

The series has as its target T1, MgrA (Staphylococcus aureus Newman) (UniProt P0C1S0).
T1 sequence (looked up, limits assumed): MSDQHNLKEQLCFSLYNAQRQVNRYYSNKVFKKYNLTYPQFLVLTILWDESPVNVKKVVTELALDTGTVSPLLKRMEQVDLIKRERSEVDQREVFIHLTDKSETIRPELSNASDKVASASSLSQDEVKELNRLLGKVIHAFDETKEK
Put plainly: EMSA. To be noted: no isorhapontigenin (0 uM), 5 uM MgrA, 0.2 uM DNA, 20 uL binding buffer ([…], room temperature, 20 min, recombinant protein.

Construct, isoform or probe ends are uncertain for at least one entry. At least one verdict was read from the data and is not stated in words by the source. Protein sequences can lack the tags named with them.

For “CGGAATTAAATCAATTAATTAACTATTAAATAAAAATTAACTATATATGC (double strand) [hla promoter 50 bp fragment]”, the binding result is given as “binds”.
